## Single amino acid changes in Zika NS2B-NS3 and viral growth

From the data files of Ni et al. 2025, doi:10.1038/s41467-025-63602-z.

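Libraries of single mutants were passaged as virus pools on Huh-7.5 cells. Sequencing of three replicate libraries (two for positions 207-308) was averaged into one effect per change. The study looked for pockets that tolerate few changes, as a guide for inhibitor design.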

Chain scanned (Zika virus MR766; NS2B from position 2 to 131, then the start of NS3):
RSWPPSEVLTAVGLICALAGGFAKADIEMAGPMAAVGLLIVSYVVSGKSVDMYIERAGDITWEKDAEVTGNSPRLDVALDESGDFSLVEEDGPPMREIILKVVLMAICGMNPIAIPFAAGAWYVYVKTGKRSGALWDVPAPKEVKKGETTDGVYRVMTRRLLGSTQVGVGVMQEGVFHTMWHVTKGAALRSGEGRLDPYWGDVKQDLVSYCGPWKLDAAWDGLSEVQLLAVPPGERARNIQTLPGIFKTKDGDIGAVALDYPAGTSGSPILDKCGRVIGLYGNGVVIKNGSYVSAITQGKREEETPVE

Scale: log2 effect, wild type = 0; the lower, the more harmful to the virus. Substitutions are written as wild-type residue, site number, new residue. An asterisk is a stop codon; stop codons read about -7, near the floor of the assay. Position 1 still belongs to NS2A. In the paper, -1 or higher counts as tolerated. Six mutants with high scores were retested singly and none clearly outgrew wild type, so positive values are not proof of better growth. Positions 1-103, 104-206 and 207-308 were made and measured as separate libraries.

{"mutation": "D84K", "log2 growth effect": -5.98}
{"mutation": "A230P", "log2 growth effect": -5.70}
{"mutation": "G194A", "log2 growth effect": -4.75}
{"mutation": "V286L", "log2 growth effect": -7.30}
{"mutation": "R74S", "log2 growth effect": -1.05}
{"mutation": "D253W", "log2 growth effect": -5.66}
{"mutation": "T150I", "log2 growth effect": -1.21}
{"mutation": "G31M", "log2 growth effect": -5.12}
{"mutation": "I115M", "log2 growth effect": -2.22}
{"mutation": "D76W", "log2 growth effect": -0.37}
{"mutation": "A258E", "log2 growth effect": -5.27}
{"mutation": "E225S", "log2 growth effect": -4.46}
{"mutation": "A187L", "log2 growth effect": -6.84}
{"mutation": "R238V", "log2 growth effect": 2.06}
{"mutation": "S291L", "log2 growth effect": -5.66}
{"mutation": "P32C", "log2 growth effect": -4.58}
{"mutation": "F85L", "log2 growth effect": -3.99}
{"mutation": "E303G", "log2 growth effect": -3.81}
{"mutation": "I99R", "log2 growth effect": -6.74}
{"mutation": "R238A", "log2 growth effect": -0.83}
{"mutation": "P244L", "log2 growth effect": -5.41}
{"mutation": "K288A", "log2 growth effect": -0.24}
{"mutation": "C108Y", "log2 growth effect": -6.42}
{"mutation": "R236F", "log2 growth effect": 0.47}
{"mutation": "V144R", "log2 growth effect": -1.77}
{"mutation": "D80L", "log2 growth effect": -7.33}
{"mutation": "P73L", "log2 growth effect": -3.30}
{"mutation": "T305M", "log2 growth effect": 0.74}
{"mutation": "D65R", "log2 growth effect": -7.55}
{"mutation": "E308Y", "log2 growth effect": -0.35}
{"mutation": "L9*", "log2 growth effect": -6.41}
{"mutation": "L39R", "log2 growth effect": -6.30}
{"mutation": "A140K", "log2 growth effect": -5.20}
{"mutation": "M105C", "log2 growth effect": -5.78}
{"mutation": "V45*", "log2 growth effect": -6.64}
{"mutation": "P232V", "log2 growth effect": 0.04}
{"mutation": "G21C", "log2 growth effect": -1.70}
{"mutation": "G109V", "log2 growth effect": -6.46}
{"mutation": "P4R", "log2 growth effect": -7.41}
{"mutation": "D253R", "log2 growth effect": -7.05}
{"mutation": "S291C", "log2 growth effect": -2.02}
{"mutation": "L75T", "log2 growth effect": -7.55}
{"mutation": "C274D", "log2 growth effect": -2.98}
{"mutation": "I246Q", "log2 growth effect": -2.91}
{"mutation": "V126C", "log2 growth effect": -1.35}
{"mutation": "V169L", "log2 growth effect": -7.44}
{"mutation": "A78T", "log2 growth effect": -0.34}
{"mutation": "G21A", "log2 growth effect": -0.17}
{"mutation": "N289M", "log2 growth effect": -5.08}
{"mutation": "V103C", "log2 growth effect": -0.33}
{"mutation": "K146D", "log2 growth effect": -5.46}
{"mutation": "G252N", "log2 growth effect": -5.44}
{"mutation": "V176Q", "log2 growth effect": -5.39}
{"mutation": "M52P", "log2 growth effect": -7.52}
{"mutation": "R301T", "log2 growth effect": -5.33}
{"mutation": "W136R", "log2 growth effect": -7.82}
{"mutation": "T242S", "log2 growth effect": -6.97}

The first 5 entries again:

{"mutation": "D84K", "log2 growth effect": -5.98}
{"mutation": "A230P", "log2 growth effect": -5.70}
{"mutation": "G194A", "log2 growth effect": -4.75}
{"mutation": "V286L", "log2 growth effect": -7.30}
{"mutation": "R74S", "log2 growth effect": -1.05}